Each structure is given as a SMILES string.

The source of these data is paper PMC5536023, “Recombinant Lipase from Gibberella zeae Exhibits Broad Substrate Specificity: A Comparative Study on Emulsified and Monomolecular Substrate” (2017).

The target of test [1] is T1, recombinant Gibberella zeae lipase (rGZEL) (Fusarium graminearum, UniProt Q6WER3). The test is described as follows: monomolecular film, zero-order trough. To be noted: 50 mM phosphate pH 6.0, room temperature, beta-cyclodextrin in subphase, surface pressure 30 mN/m.
In test [2] the target is T1, recombinant Gibberella zeae lipase (rGZEL). Kind of test: pH-stat hydrolysis of triglyceride emulsion. To be noted: pH 7.0, 30-40 °C.

`CCCCCCCC/C=C\CCCCCCCC(=O)OC[C@H](COP(=O)([O-])OCC[N+](C)(C)C)OC(=O)CCCCCCC/C=C\CCCCCCCC`: the “monomolecular film, zero-order trough” value in test [1] was “For DOPC, PE, PI, PA, and PG, maximum specific activities were found”.

Turning to `CCCCCCCC(=O)OCC(COC(=O)CCCCCCC)OC(=O)CCCCCCC`, in test [2], the “pH-stat hydrolysis of triglyceride emulsion” value was “Highest hydrolytic activity was found for TC8”.
